Structure probing of HIV-1 leader RNA with DMS

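Randomly mutated transcripts starting with one, two or three G (1G, 2G, 3G), capped or uncapped, were folded for 30 min at 37 °C. High salt was 300 mM KCl and 5 mM MgCl2, low salt 40 mM KCl and 0.1 mM MgCl2; monomer and dimer were parted on a native gel. Each band was probed in the gel with DMS (170 mM, 15 min, 37 °C), with ethanol as control, and sequenced.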

Sequence of the HIV-1 NL4-3 5' RNA, positions 1 to 437, as numbered in the source:
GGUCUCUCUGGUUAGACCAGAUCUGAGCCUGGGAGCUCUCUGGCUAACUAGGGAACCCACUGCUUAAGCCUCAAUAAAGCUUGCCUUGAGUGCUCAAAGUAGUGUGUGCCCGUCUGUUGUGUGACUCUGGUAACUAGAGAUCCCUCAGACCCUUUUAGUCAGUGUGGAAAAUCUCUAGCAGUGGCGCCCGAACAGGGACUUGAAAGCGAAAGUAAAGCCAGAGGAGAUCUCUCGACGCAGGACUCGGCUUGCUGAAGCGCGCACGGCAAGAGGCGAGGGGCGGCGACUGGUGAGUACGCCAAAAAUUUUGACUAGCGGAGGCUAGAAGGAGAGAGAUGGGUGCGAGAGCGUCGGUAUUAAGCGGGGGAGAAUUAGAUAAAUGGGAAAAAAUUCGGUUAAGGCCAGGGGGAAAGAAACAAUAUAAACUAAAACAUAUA

Values are winsor-normalised DMS reactivities of A and C; higher means more reactive, usually unpaired. Sample: 2G uncapped low-salt monomer. One numbering serves 1G, 2G and 3G. A position is written with its base.

position | domain | 2G uncapped low-salt monomer
A19 | TAR | 0.03
A21 | TAR | 0.57
C23 | TAR | 1.31
A26 | TAR | 0.10
C28 | TAR | 0.03
A34 | TAR | 1.12
C40 | TAR | 0.03
C44 | TAR | 0.03
A47 | TAR | 0.14
A50 | TAR | 0.14
A54 | TAR | 0.14
A55 | TAR | 0.27
C56 | TAR | 0.04
C58 | PolyA | 1.00
A59 | PolyA | 0.56
C63 | PolyA | 0.26
A66 | PolyA | 0.94
A67 | PolyA | 0.81
C69 | PolyA | 0.03
A73 | PolyA | 0.04
A74 | PolyA | 0.78
A76 | PolyA | 0.27
A78 | PolyA | 0.76
C80 | PolyA | 0.37
C85 | PolyA | 0.26
A89 | PolyA | 0.51
C93 | PolyA | 0.03
C95 | PolyA | 0.52
A96 | PolyA | 0.27
A97 | PolyA | 0.47
A98 | PolyA | 0.39
C114 | none | 0.20
A124 | none | 1.17
C125 | PAS | 0.06
C127 | PAS | 0.03
A133 | PBS | 1.50
A136 | PBS | 0.10
A138 | PBS | 0.14
A140 | PBS | 0.42
C142 | PBS | 0.07
A147 | PBS | 0.43
C150 | PBS | 0.08
C151 | PBS | 0.79
C152 | PBS | 0.81
A157 | PBS | 0.89
C160 | PBS | 0.04
A161 | PBS | 0.45
A168 | PBS | 0.45
A169 | PBS | 0.70
A170 | PBS | 0.53
A171 | PBS | 0.45
C173 | PBS | 0.03
C175 | PBS | 0.03
C179 | PBS | 0.78
A180 | PBS | 0.56
C185 | PBS | 0.41
C189 | PBS | 0.08
A191 | PBS | 0.40
A194 | PBS | 1.02
A198 | PBS | 0.57
C199 | PBS | 0.40
A205 | PBS | 0.34
A214 | PBS | 0.26
A215 | PBS | 0.51
C218 | antiPAS | 0.03
A220 | antiPAS | 0.33
A222 | antiPAS | 0.26
C229 | CU | 0.27
C238 | none | 0.72
C243 | SL1 | 0.05
A255 | SL1 | 0.49
C260 | SL1 | 0.42
A268 | SL1 | 0.26
A271 | SL1 | 0.53
A286 | SL2 | 0.51
A293 | SL2 | 0.79
A296 | SL2 | 0.59
C297 | SL2 | 0.18
C300 | none | 0.06
A302 | none | 1.19
A303 | none | 0.07
A304 | none | 0.16
A305 | none | 0.69
A311 | none | 1.21
A314 | SL3 | 0.03
C316 | SL3 | 0.12
A324 | SL3 | 0.11
A326 | none | 0.80
A332 | none | 0.60
A336 | AUG | 0.91
C343 | AUG | 0.37
A345 | none | 1.23
A347 | none | 0.28
C349 | none | 0.33
C352 | none | 0.33
A378 | none | 0.21
A385 | none | 0.52
A386 | none | 1.28
A388 | none | 0.08
A389 | none | 0.17
C393 | none | 0.60
A398 | none | 0.22
A399 | none | 0.28
C402 | none | 0.04
A404 | none | 0.24
A410 | none | 0.40
A411 | none | 0.80
A416 | none | 0.42
C417 | none | 0.78
A418 | none | 0.61
A419 | none | 0.44
A423 | none | 0.40
A425 | none | 0.49
C426 | none | 0.72
A428 | none | 0.10
A430 | none | 0.53
A437 | none | 0.03

The first 8 entries again:

For A19 (domain TAR) the result was 0.03.
For A21 (domain TAR) the result was 0.57.
For C23 (domain TAR) the result was 1.31.
For A26 (domain TAR) the result was 0.10.
For C28 (domain TAR) the result was 0.03.
For A34 (domain TAR) the result was 1.12.
For C40 (domain TAR) the result was 0.03.
For C44 (domain TAR) the result was 0.03.

Values reported by Ye et al. 2022 (doi:10.1038/s41594-022-00746-2).